Laboratory results: the supplement of paper PMC9931576
Positions count from the first letter of the chain named. Human monoclonal antibodies against the spike receptor-binding domain (heavy:light variable regions). IC50 against pseudoviruses bearing the spike of naturally observed variants; lower = stronger; >10 µg/ml means not reached at the top dose. No active / inactive call. The stated detection limit is 0.0005 µg/ml; values near or below 0.001 µg/ml lie at the floor of the assay.

B1: COV2-2268 (protein)
chain 1: QITLKESGPTLVKPTQTLTLTCTFSGFSLSTSGVGVGWIRQPPGKALEWLALIYWDDDKRYSPSLKSRLSITKDTSKNQVVLTMTNMDPVDTGTYYCARHQIVVLFDMWGQGTRVTVSS
chain 2: QSALTQPASVSGSPGQSITISCTGTGSDVGGSNYVSWYQQHPGKAPKLMIYDVSNRPSGVSNRFSGSKSGNTASLTISGLQAEDEADYYCSSYTSSSTLVLFGGGTKLSVL
B2: BD56-1650 (protein)
chain 1: QVQLVQSGAVLKKPGSSVKVSCKASGGSFSTNTITWVRQAPGQGLEWMGRIFPVLGVANYAQQFQGRVTITADKSTSTAYMELNRLRSEDTAEYYCAREPPNYCTRTICFDYWGQGTLVTVSS
chain 2: QSVLTQPPSVSGAPGQRVTISCTGSNSNIGAGYDVHWYQRLPGTAPKLLIYDNTNRPSGVPDRFSGSKSGTSASLAITGLQAADEADYYCQSYDSTLSDSVFGGGTKLTVL
B3: BD56-1668 (protein)
chain 1: QVQLVQSGAEVKKPGSSVKVSCKASGGTFSSYTIAWVRQAPGQGLEWMGRIIPFLAVADYAAQLQGRVSITADKSTSTAYMELSSLRSEDTAVYFCALARGYSGSGSSYYFDSWGLGTLVTVSS
chain 2: B2 chain 2 with T5A, N26S, R40Q, G43S, K47R, D52A, T54N, A83G, T96S, D99G
B4: COV2-2760 (protein)
chain 1: QVTLRESGPALVKPTQTLTLTCTFSGFSLSTSGLCVSWIRQPPGKALEWLARIDWDDDKYYNTSLRTRLTISKDTSKNQVVLTMTNMDPVDTATYYCARATTFFYGMDVWGQGTTVTVSS
chain 2: QSVLTQPPSASGTPGQRVTISCSGSRYNIGSNYVYWYQQLPGTAPRLLIYSNNQRPSGVPDRFSGSKSGTSASLAISGLRSEDEADYYCAAWDDSLSGLIFGGGTKLTV
B5: BD56-1652 (protein)
chain 1: EVQLVESGGGLVQPGRSLRLSCAASGFTFEDSAMHWVRQVPGKGLEWVSGMSRNSATIGYADSVKGRFIISRDNAKNSLYLQMYSLRLEDTAMYYCAKDMGSAIGPAGTEGMDVWGPGTTVTVSS
chain 2: SYVLTQPPSVSVAPGKTARITCGGNNIGRRSVHWYQQRPGQAPVLVVNDDSDRPSGIPERFSGSNSGNTATLTISRVEAGDEADYYCQVWDSTFDQVVFGGGTKLTVL
B6: BD56-1688 (protein)
chain 1: QVQLVQSGAELKKPGSSVKVSCQASGGTFSNYGFSWVRQAPGQGLEWMGRIIPILPITNYAQKLQGRVTITADESTTTVYMELSSLRSEDSAIYYCARHLHDYGDDLLYKYVMDVWGQGTTVTVSS
chain 2: DIQMTQSPSTLSASVGDRVTITCRASQTISNWLAWYQQKPGKAPKLLISKASNLQSGVPSRFSGSGSGTEFTLTISGLQPDDFATYYCQQYNTYSPFGQGTKVEIK

target: SARS-CoV-2 Omicron BA.1 spike pseudovirus; test: pseudovirus neutralization IC50; higher = weaker neutralization
Protocol: (§1)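 Single-round VSV luciferase pseudovirus mixed with antibody dilutions for 1 h and put on Huh-7 cells for about a day; IC50 from the dose curve.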

Compared with B1, B2 is lower in “pseudovirus neutralization IC50” value: over 10 µg/mL for the first, 0.0779 µg/mL for the second.

First: B3
Second: B4
The “pseudovirus neutralization IC50” value of the first is lower: 0.0212 µg/mL for the first, over 10 µg/mL for the second.

B5 and B6 are within 1.5-fold of each other in “pseudovirus neutralization IC50” value: 0.00911 µg/mL for the first, 0.00778 µg/mL for the second.

target: SARS-CoV-2 Omicron BA.2 spike pseudovirus; test: as above
Protocol: as §1

Going from B1 to B2, the “pseudovirus neutralization IC50” value falls from over 10 µg/mL to 0.086 µg/mL.

First: B3
Second: B4
The “pseudovirus neutralization IC50” value of the first is lower: 0.0499 µg/mL for the first, over 10 µg/mL for the second.

First: B5
Second: B6
The “pseudovirus neutralization IC50” value of the first is 4.1-fold higher: 0.0162 µg/mL for the first, 0.00391 µg/mL for the second.

target: SARS-CoV-2 Omicron BA.2.75 spike pseudovirus; test: as above
Protocol: as §1

First: B1
Second: B2
The “pseudovirus neutralization IC50” value of the first is higher: over 10 µg/mL for the first, 0.0446 µg/mL for the second.

Going from B3 to B4, the “pseudovirus neutralization IC50” value rises from 0.0473 µg/mL to over 10 µg/mL.

First: B5
Second: B6
The “pseudovirus neutralization IC50” value of the first is 97-fold lower: 0.00817 µg/mL for the first, 0.789 µg/mL for the second.

target: SARS-CoV-2 Omicron BA.5 spike pseudovirus; test: as above
Protocol: as §1

First: B1
Second: B2
The “pseudovirus neutralization IC50” value of the first is higher: over 10 µg/mL for the first, 2.75 µg/mL for the second.

First: B3
Second: B4
The “pseudovirus neutralization IC50” value of the first is lower: 4.44 µg/mL for the first, over 10 µg/mL for the second.

Compared with B5, B6 is 1.9-fold higher in “pseudovirus neutralization IC50” value: 0.123 µg/mL for the first, 0.229 µg/mL for the second.

target: SARS-CoV-2 Omicron BQ.1.1 spike pseudovirus; test: as above
Protocol: as §1

B1 and B2 cannot be ordered by “pseudovirus neutralization IC50” value: over 10 µg/mL for the first, over 10 µg/mL for the second.

B3 and B4 cannot be ordered by “pseudovirus neutralization IC50” value: over 10 µg/mL for the first, over 10 µg/mL for the second.

Going from B5 to B6, the “pseudovirus neutralization IC50” value falls from over 10 µg/mL to 1.51 µg/mL.

target: SARS-CoV-2 Omicron XBB spike pseudovirus; test: as above
Protocol: as §1

B1 and B2 cannot be ordered by “pseudovirus neutralization IC50” value: over 10 µg/mL for the first, over 10 µg/mL for the second.

B3 and B4 cannot be ordered by “pseudovirus neutralization IC50” value: over 10 µg/mL for the first, over 10 µg/mL for the second.

First: B5
Second: B6
The “pseudovirus neutralization IC50” value of the first is higher: over 10 µg/mL for the first, 2.04 µg/mL for the second.

target: SARS-CoV-2 early D614G spike pseudovirus; test: as above
Protocol: as §1

B1 and B2 are within 1.5-fold of each other in “pseudovirus neutralization IC50” value: 0.509 µg/mL for the first, 0.42 µg/mL for the second.

Going from B3 to B4, the “pseudovirus neutralization IC50” value rises from 0.805 µg/mL to over 10 µg/mL.

Compared with B5, B6 is 13-fold higher in “pseudovirus neutralization IC50” value: 0.0192 µg/mL for the first, 0.247 µg/mL for the second.
